Data on five compounds can be found in ChEMBL document CHEMBL1124036 (J Med Chem, 1988).

In brackets after ≈: the same amount, converted by molar mass.

For this assay, the system named is Vaccinia virus. The assay can be described thus: The minimum inhibitory concentration required for 50% inhibition of vaccinia virus induced cytopathogenic effect in L929 cells. On the technique in general: Damage to the host cells serves as the signal in cytopathic effect assays.
`[N-]=[N+]=N[C@H]1C(n2cnc3c(N)nc(Cl)nc32)O[C@H](CO)[C@@H]1O` (stereo not given in full) gave an MIC50 of 187 µg/mL (≈ 572 µM).
With `[N-]=[N+]=N[C@H]1C(n2cnc3c(N)nc(F)nc32)O[C@H](CO)[C@@H]1O` (stereo not given in full) the figure was 14 µg/mL (≈ 45.1 µM).
Turning to `Nc1nc(F)nc2c1ncn2C1O[C@H](CO)[C@H](O)[C@H]1Cl` (stereo not given in full), the MIC50 was 75 µg/mL (≈ 247 µM).
The compound `Nc1nc(Cl)nc2c1ncn2C1O[C@H](CO)[C@H](O)[C@H]1Cl` (stereo not given in full) had an MIC50 of 83 µg/mL (≈ 259 µM).
Consider `Nc1nc(F)nc2c1ncn2C1O[C@H](CO)[C@H](O)[C@H]1N` (stereo not given in full), for which the MIC50 was 68 µg/mL (≈ 239 µM).
